Measurements as given in article PMC4595672.
Construct, isoform or probe ends are uncertain for at least one entry.

Tests used:
[1] = target: His-CRP (cAMP receptor protein) (UniProt O34015); experiment: EMSA; conditions: 100 uM cAMP, 50 mM Tris-HCl pH 7.8, 250 mM KCl, 5 mM MgCl2, 2.5 mM EDTA, 0.5 mM MnCl2, 2.5 mM DTT, 1 ug poly(dI.dC), 10 ul, room temperature 30 min, recombinant protein, protein details: 6xHis, label: 5' biotin, probe letters rebuilt from the primers and the genome
[2] = target: His-CRP (cAMP receptor protein) (UniProt O34015); experiment: competition with a labelled probe; conditions: 100 uM cAMP, 100-fold excess partial, 300-fold abolishes shift of labelled 152-bp probe, 50 mM Tris-HCl pH 7.8, 250 mM KCl, 5 mM MgCl2, 2.5 mM EDTA, 0.5 mM MnCl2, 2.5 mM DTT, 1 ug poly(dI.dC), 10 ul, room temperature 30 min, recombinant protein, protein details: 6xHis, probe letters rebuilt from the primers and the genome

“GGTTTAAGTATAGAGGAGCAACAAAAAATTGACGATGTGATACTGGTCTCATAATCTGGCGCAAAAGTATTGCAT (double strand) [probe-CBS1 75 bp]”: binds ([1]; single shifted band at 0.11 uM CRP).

“GTTCGTATGAGCTTGCTTGTTTTATGAAGCTAATGATAGTTTACGAAGAGAAATAAGTCTGGACTTATCTCACATCGATGCAATACTTTTGCGCCAGATTATGAGACCAGTATCACATCGTCAATTTTTTGTTGCTCCTCTATACTTAAACC (double strand) [tfoXVC promoter 152-bp probe (CBS1+CBS2)]”: binds ([1]; shift at 0.11 uM CRP, second higher shift >0.88 uM).

“GTTCGTATGAGCTTGCTTGTTTTATGAAGCTAATGATAGTTTACGAAGAGAAATAAGTCTGGACTTATCTCACATCGATGCAATACTTTTGCGCCAGATTATGAGACCAGTATCACATCGTCAATTTTTTGTTGCTCCTCTATACTTAAACC (double strand) [tfoXVC promoter 152-bp unlabelled competitor]”: binds [2].
